Laboratory results as given in patent US20240043504A1 (published 2024).

B1: mAb10930 (antibody, V domains shown)
VH: EVQLVESGGGLVQPGRSLRLSCAASGFTFDDYAMYWVRQAPGKGLEWVSGISWNSGSIGYADSVKGRFTISRDNAKNSLYLQMNSLRAADTALYYCAKDKDWNSRGYYYYGMDVWGQGTTVTVSS
VL: not shown
B2: mAb10989 (antibody, V domains shown)
VH: QVQLVQSGAEVKKPGASVKVSCKASGYIFTGYYMHWVRQAPGQGLEWMGWINPNSGGANYAQKFQGRVTLTRDTSITTVYMELSRLRFDDTAVYYCARGSRYDWNQNNWFDPWGQGTLVTVSS
VL: QSALTQPASVSGSPGQSITISCTGTSSDVGTYNYVSWYQQHPGKAPKLMIFDVSNRPSGVSDRFSGSKSGNTASLTISGLQAEDEADYYCSSFTTSSTVVFGGGTKLTVLG
B3: mAb11006 (antibody, V domains shown)
VH: EVQLVESGGGLVQPGGSLRLSCAASGFIVSRNYMSWVRQAPGKGLEWVSVIYSGGSTFYADSVKGRFTISRHNSKNTLYLQMNSLKAEDTAVYYCARELRGYFDYWGQGTLVTVSS
VL: DIQLTQSPSFLSASVGDRVTITCWASQGISSYLAWYQQKPGKAPKLLIYAASTLQSGVPSRFSGSGSGTEFTLTISSLQPEDFATYYCQLLNSYPYTFGQGTKLEIKR
B4: mAb10934 (antibody, V domains shown)
VH: not shown
VL: DIQMTQSPSSLSASVGDRVTITCQASQDIWNYINWYQQKPGKAPKLLIYDASNLKTGVPSRFSGSGSGTDFTFTISSLQPEDIATYYCQQHDDLPPTFGQGTKVEIKR
B5: mAb10939 (antibody, V domains shown)
VH: EVQLVESGGGLVQPGGSLRLSCAASGLTVSSNYMNWVRQVPGKGLEWVSVIYSGGSKFYVDSVKGRFTISRHNSKNTLYLQMNSLRPEDTAVYYCTRDAQYYGMDVWGQGTTVTVSS
VL: DIQMTQSPSSLSASVGDRVTITCRASQSISTYLHWYQQKPGEAPKLLIYAASSLQSGVPSRFSGSGSGTDFTLTISSLQPEDFATYYCQQSYSTPPEIFGQGTKLEIKR
B6: mAb10938 (antibody, V domains shown)
VH: EVQLVESGGGLVQPGGSLRLSCAVSGFTVSSNYMSWVRQAPGKGLEWVSLIYSGGSTFYADSVKGRFTISRHNSKNTLYLQMNSLRAEDTAVYYCAREGGYSYDYNYWGQGTLVTVSS
VL: DIQMTQSPSSLSASVGDRVTITCQASQDIRNYLNWYQQKPGKAPKLLIYDASNLETGVPSRFSGIGSGTDFTFTISSLQPEDIATYYCQQYDNLPITFGQGTRLEIKR
B7: mAb10984 (antibody, V domains shown)
VH: EVQLVESGGGLVQPGGSLRLSCAASGLTVNRNYMSWVRQAPGKGLEWVSLIYSGGSTYYADSVKGRFTISRDNSKNTLYLQMNSLRLEDTAVYYCARGELGIPYGMDVWGQGTTVTVSS
VL: QSVLTQPPSVSAAPGQKVTISCSGSSSNIGNNYVSWYQQLPGTAPKLLIYDNNKRPSGIPDRFSGSKSGTSATLGITGLQTGDEADYYCGTWDSSLSAGVFGGGTKLTVLG
B8: mAb10985 (antibody, V domains shown)
VH: EVQLVESGGGLVQPGRSLRLSCAASGFTFDDYAMHWVRQAPGKGLEWVSGISWNRGSIGYADSVKGRFTISRDNAKNSLYLQMSSLRAEDTALYYCAKDGERWDSVVVPSARNGMDVWGQGTTVTVSS
VL: QSVLTQPPSVSGAPGQRVTISCTGSSSNIGAGYDVHWYQQLPGTAPKLLIYGNSNRPSGVPDRFSGSKSGTSASLAITGLQAEDEADYYCQSYDSSLSGSYVFGTGTKVTVLG
B9: mAb10982 (antibody, V domains shown)
VH: EVQLVESGGGLVQPGGSLRLSCAASGLTVSSNYMSWVRQAPGKGLEWVSVIYSGGTTYYADSVKGRFTISRHNSKNTLSLQMNSLRAEDTAVYYCARGEGANYYGMDVWGQGTTVTVSS
VL: QSVLTQPPSVSGAPGQRVTISCTGSSSNIGTGYDVHWYQQLPGTAPKLLIYGNSNRPSGVPDRFSGSKSGTSASLAITGLQAEDEADYYCQSYDSSLSGYVVFGGGTKLTVLG
B10: mAb10935 (antibody, V domains shown)
VH: EVQLVESGGGLVQPGGSLRLSCAASGFTVSSNYMSWVRQAPGKGLEWVSLIYSGGSTYYADSVKGRFTISRHNSKNTLYLQMNSLRSEDTAVYYCARVPLGDYYYGMDVWGQGTTVTVSS
VL: DIQMTQSPSSLSASVGDRVTITCQASQDINKYLNWYQQKPGKAPKLLIYDASNLETGVPSRFSGSGSGTDFTFTISSLQPEDIATYYCQQSDNLPLTFGGGTKVEIKR
B11: mAb10971 (antibody, V domains shown)
VH: EVQLVESGGGLIQPGGSLRLSCAASGVTVSSNYMSWVRQAPGKGLEWVSVIYSGGSTFYSDSVKGRFSISRDNSKNTLYLQMNSLRAEDTAVYYCARDLYYYGMDVWGQGTTVTVSS
VL: DIQLTQSPSFLSASVGDRVTITCRASQGISTYLAWYQQKPGKAPKLLIYAASTLQSGVPSRFSGSGSGTEFTLTISSLQPEDFATYYCQQLDSYPGLTFGGGTKVEIKR
B12: mAb10966 (antibody, V domains shown)
VH: EVQLVESGGGLVQPGGSLRLSCAASGLTVSSNYMSWVRQAPGKGLEWVSVIYSGGSTFYADSVKGRFTISRDNSKNTLYLQMNSLRPEDTAVYYCAREGRIAATGYGMDVWGQGTTVTVSS
VL: DIQMTQSPSSLSASVGDRVTITCQASQDISNYLNWYQQKPGKAPKLLIYDASNLGTGVPSRFSGSRSGTDFTFTISSLQPEDIATYYCHQYDNLPQTFGPGTKVDIKR
B13: mAb10954 (antibody, V domains shown)
VH: EVQLVESGGGLVQPGGSLRLSCAASGITVSSNYMSWVRQAPGKGLEWVSLIYSGGSTYYADSVKGRFTISRDNSKNTLYLQMNSLRVEDTAVYYCARDHGMAAAGYNYWGQGTLVTVSS
VL: DIQMTQSPSSLSASVGDRVTITCQASQDINKYLNWYQQKPGKAPKLLIYDASNLETGVPSRFSGSGSGTDFTFTINSLQPEDFATYFCQQYDNLPPAFGQGTKVEIKR
B14: mAb10922 (antibody, V domains shown)
VH: EVQLVESGGGLVQPGGSLRLSCAASGFTFSIYEMNWVRQAPGKGLEWVSYITSSGTTIYYADSVKGRFTISRDNAKNSLYLQMNSLRAEDTAVYYCASSSSSGYYFDYWGQGTLVTVSS
VL: not shown
B15: mAb11008 (antibody, V domains shown)
VH: EVQLVESGGGLVQPGGSLRLSCAASGFTVSSNYMTWVRQAPGKGLEWVSVIYSGGSTFYADSVKGRFTISRHNSENTLYLQMNSLRAEDTAVYYCARDLAAAGTDYWGQGALVTVSS
VL: DIQLTQSPSFLSASVGDRVTITCWASQGISSYLAWYQQKPGKAPKLLIYAASTLQSGVPSRFSGSGSGTEFTLTISSLQPDDFATYYCQHLNSYLYTFGQGTKLEIKR
B16: mAb10998 (antibody, V domains shown)
VH: EVQLVESGGGLVHPGGSLRLSCAASGLTVSSNYMSWVRQAPGKGLEWVSVIYSGGSTYYADSVKGRFTISRHNSKNTLFLQMNSLRAEDTAVYYCARDRPITGTTLDVWGQGTTVTVSS
VL: DIQMTQSPSSLFASVGDRVTITCRASQSISSYLNWYQQKPGKAPKLLIYAASSLQSGVPSRFSGSGSGTDFTLTISSLQPEDFAFYYCQQTYSTPPITFGQGTRLEIKR
B17: mAb11004 (antibody, V domains shown)
VH: QVQLVESGGGVVQPGRSLRLSCVASGFTFSIYGMDWVRQAPGKGLEWVAVISYDGSNKYYADSVKGRFTISRDNSKNTLYLQMNSLRPEDTAVYYCAKDREAAADAFDIWGQGTMVTVSS
VL: DIQMTQSPSSVSASVGDRVTITCRASQGISSWLAWYQQKPGKAPKLLIYAASSLHSGVPSRFSGSGSGTDFTLTISSLQPEDFATYYCQQANSFRLTFGGGTKVEIKR
B18: mAb10922 (antibody, V domains shown)
VH: EVQLVESGGGLVQPGGSLRLSCAASGFTFSIYEMNWVRQAPGKGLEWVSYITSSGTTIYYADSVKGRFTISRDNAKNSLYLQMNSLRAEDTAVYYCASSSSSGYYFDYWGQGTLVTVSS
VL: not shown
B19: mAb10922 (antibody, V domains shown)
VH: EVQLVESGGGLVQPGGSLRLSCAASGFTFSIYEMNWVRQAPGKGLEWVSYITSSGTTIYYADSVKGRFTISRDNAKNSLYLQMNSLRAEDTAVYYCASSSSSGYYFDYWGQGTLVTVSS
VL: not shown

biological target: UNMODIFIED-SARS-CoV-2 Spike Protein (RBD)(R319-F541).mmH (SARS-CoV-2); assay: Luminex beads, supernatant

Point of comparison: B1, “Binding signal (MFI)” value 29500 MFI. Against it:
- B2 — lower, 19700 MFI
- B3 — lower, 2040 MFI
- B4 — higher, 33100 MFI
- B5 — higher, 33600 MFI
- B6 — higher, 34500 MFI
- B7 — lower, 25800 MFI
- B8 — lower, 27400 MFI
- B9 — lower, 27500 MFI
- B10 — higher, 31900 MFI
- B11 — lower, 27400 MFI
- B12 — the same, 29500 MFI
- B13 — lower, 28500 MFI
- B14 — higher, 33200 MFI
- B15 — lower, 7100 MFI
- B16 — lower, 2560 MFI
- B17 — lower, 6510 MFI

biological target: SARS-COV-2 RBD extracellular domain expressed with a C-terminal mouse IgG2a (SARS-CoV-2); assay: SPR Biacore, mAb captured via anti-hFc, 25 C

B18 gave a Kd of 0.0176 nM.

B18 was tested, and the “t½” value was 3.41 h.

biological target: SARS-COV-2 RBD extracellular domain expressed with a C-terminal mouse IgG2a (SARS-COV-2 RBD-mFc) (SARS-CoV-2); assay: SPR, captured mAb, RBD-mFc in solution, 37 C

Binder B19 has a Kd of 0.0349 nM.

B19 was tested, and the “t½” value was 1.2 h.
